{
  "source": "patent US9206191B2",
  "about": "“Indazoles for the treatment and prophylaxis of respiratory syncytial virus infection” (Hoffmann-La Roche Inc., priority 2012, dated 2015)",
  "system": "RSV Long strain",
  "assay": "Viral Cytopathic Effect (CPE) Assay",
  "format": "cell-based, respiratory syncytial virus (RSV)",
  "details": "read-out: CPE Long EC50, cell viability after 6 days, Cell Counting kit-8",
  "note": "Only a part of the results on these compounds is given; other tests are left out.",
  "data": [
    {"smiles": "CS(=O)(=O)c1nn(Cc2nc3cc(Cl)ccc3n2CCN2CCC(O)C2)c2cnccc12", "note": "(stereo not drawn)", "values": [
      {"measurement": "EC50", "value": 6, "unit": "nM"}
    ]},
    {"smiles": "CS(=O)(=O)c1nn(Cc2nc3cc(Cl)ccc3n2CCN2CCC(O)CC2)c2cnccc12", "values": [
      {"measurement": "EC50", "value": 3.5, "unit": "nM"}
    ]},
    {"smiles": "CS(=O)(=O)c1nn(Cc2nc3cc(Cl)ccc3n2CCN2CCOCC2)c2cnccc12", "values": [
      {"measurement": "EC50", "value": 13, "unit": "nM"}
    ]}
  ]
}
